From article PMC9270327 (Communications Biology, 2022)
Like-named read-outs stand apart in the source and are kept apart here.

Protein sequences, listed by entry. Tags and fused reporters are not part of them.
UniProt O15393, whole entry: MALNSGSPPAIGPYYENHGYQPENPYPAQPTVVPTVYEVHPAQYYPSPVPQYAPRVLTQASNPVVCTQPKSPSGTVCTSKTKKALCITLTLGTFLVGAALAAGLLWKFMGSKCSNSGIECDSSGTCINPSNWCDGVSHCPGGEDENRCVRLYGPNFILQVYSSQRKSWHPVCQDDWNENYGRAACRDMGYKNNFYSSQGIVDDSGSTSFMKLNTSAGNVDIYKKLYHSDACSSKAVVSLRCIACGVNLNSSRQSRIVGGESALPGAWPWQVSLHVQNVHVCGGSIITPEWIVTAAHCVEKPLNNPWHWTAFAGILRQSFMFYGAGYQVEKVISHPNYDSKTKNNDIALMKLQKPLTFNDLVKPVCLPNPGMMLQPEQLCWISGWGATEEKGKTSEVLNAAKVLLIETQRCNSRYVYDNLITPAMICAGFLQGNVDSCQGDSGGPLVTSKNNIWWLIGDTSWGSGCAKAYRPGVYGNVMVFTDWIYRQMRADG
UniProt Q9Y5Y6, whole entry: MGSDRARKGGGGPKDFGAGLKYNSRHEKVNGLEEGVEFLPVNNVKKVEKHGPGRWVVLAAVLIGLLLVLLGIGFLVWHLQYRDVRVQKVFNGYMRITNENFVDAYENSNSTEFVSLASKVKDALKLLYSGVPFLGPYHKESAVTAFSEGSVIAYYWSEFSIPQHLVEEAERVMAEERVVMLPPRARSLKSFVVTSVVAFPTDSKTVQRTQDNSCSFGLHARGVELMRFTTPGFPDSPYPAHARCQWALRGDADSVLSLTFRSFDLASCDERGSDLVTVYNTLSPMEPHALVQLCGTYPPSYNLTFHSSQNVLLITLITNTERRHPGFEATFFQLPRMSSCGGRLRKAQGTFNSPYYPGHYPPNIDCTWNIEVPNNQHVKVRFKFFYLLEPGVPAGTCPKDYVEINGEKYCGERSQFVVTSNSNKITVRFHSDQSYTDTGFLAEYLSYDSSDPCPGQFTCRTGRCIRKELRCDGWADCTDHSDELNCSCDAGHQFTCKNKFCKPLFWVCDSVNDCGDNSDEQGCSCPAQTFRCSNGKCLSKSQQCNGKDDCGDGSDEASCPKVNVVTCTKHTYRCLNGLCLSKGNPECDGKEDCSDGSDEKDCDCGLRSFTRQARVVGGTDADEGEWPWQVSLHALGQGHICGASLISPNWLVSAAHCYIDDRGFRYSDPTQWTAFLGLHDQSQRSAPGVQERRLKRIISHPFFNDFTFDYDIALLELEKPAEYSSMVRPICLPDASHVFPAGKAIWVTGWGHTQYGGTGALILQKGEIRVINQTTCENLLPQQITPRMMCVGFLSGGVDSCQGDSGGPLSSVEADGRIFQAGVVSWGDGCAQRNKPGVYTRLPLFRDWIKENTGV

What was measured:
[1] = tested on: SARS-CoV-2 Alpha (B.1.1.7), Caco-2 cells; experiment: SARS-CoV-2 inhibition assay, VOC Alpha (in-cell ELISA); conditions: read-out: IC50 SARS-CoV-2 Alpha; Caco-2 cells, in-cell ELISA 2 days post infection
[2] = Stability and epimerization in 25% human serum by analytical HPLC; assay type: in vitro ADME
[3] = biological target: recombinant human thrombin (Homo sapiens, UniProt P00734); experiment: Enzyme inhibition assay with purified thrombin (Ki, dose-response); assay type: biochemical
[4] = tested on: SARS-CoV-2 Beta (B.1.351), Caco-2 cells; experiment: SARS-CoV-2 inhibition assay, VOC Beta (in-cell ELISA); conditions: for SARS-CoV-2 infection, Mean (0 nM = 100): Fig. 6d, VOC Beta
[5] = biological target: TMPRSS2 expressed in HEK293T cells (Homo sapiens, UniProt O15393); experiment: Inhibition of cellular TMPRSS2 activity on HEK293T cells transiently expressing TMPRSS2; assay type: cell-based; conditions: 2 h; for normalized fluorescence intensity, HEK293T TMPRSS2, Mean (Fig. 4b): corrected for mock-transfected cells
[6] = tested on: lentiviral pseudoparticles carrying SARS-CoV-2 Beta (B.1.351) spike, Caco-2 cells; experiment: Pseudovirus inhibition assay, Beta spike; conditions: for SARS-CoV-2 spike driven entry, Mean (0 nM = 100): Fig. 5c, Beta spike pseudoparticles
[7] = biological target: cellular TMPRSS2 activity, Caco-2 cells (Homo sapiens, UniProt O15393); conditions: for cellular protease activity on Caco-2 cells, Mean (Fig. 4a): normalized, 0 nM = 100
[8] = biological target: recombinant human matriptase (Homo sapiens, UniProt Q9Y5Y6); experiment: Enzyme inhibition assay with purified matriptase (Ki, dose-response); assay type: biochemical
TMPRSS2 = TMPRSS2 (Homo sapiens, UniProt O15393); conditions: for TMPRSS2 activity, Mean (Fig. 2a): normalized, 0 nM = 100
[9] = tested on: lentiviral pseudoparticles carrying SARS-CoV-2 Alpha (B.1.1.7) spike, Caco-2 cells; experiment: Pseudovirus inhibition assay, Alpha spike; conditions: for SARS-CoV-2 spike driven entry, Mean (0 nM = 100): Fig. 5b, Alpha spike pseudoparticles

For `CC(=O)N[C@H](CCCNC(=N)N)C(=O)N[C@@H](CC1CCC1)C(=O)NC(CCCNC(=N)N)C(=O)c1nc2ccccc2s1` (stereo partly drawn), the IC50 [1] was 21600 nM, the “time to epimerization of the P1 Arg Cα-atom” value [2] was ≤ 30 min and the “Ki Thrombin” value ([3]; 30 min preincubation, substrate D-Phe-Homopro-Arg-pNA) was “n.i”. For the same compound, the Selectivity index Thrombin ([3]; quotient Ki thrombin / Ki TMPRSS2) was > 867, the Ki ([3]; read-out: Ki Thrombin, 30 min preincubation, substrate D-Phe-Homopro-Arg-pNA) was > 50000 nM and the “SARS-CoV-2 infection, Mean (0 nM = 100)” value ([4]; compound 32 nM) was 93.6693. For the same compound, the “SARS-CoV-2 infection, Mean (0 nM = 100)” value ([4]; compound 160 nM) was 88.8083, the “SARS-CoV-2 infection, Mean (0 nM = 100)” value ([4]; compound 800 nM) was 88.1239 and the “SARS-CoV-2 infection, Mean (0 nM = 100)” value ([4]; compound 4000 nM) was 87.5608. For the same compound, the “SARS-CoV-2 infection, Mean (0 nM = 100)” value ([4]; compound 20000 nM) was 80.5966, the “SARS-CoV-2 infection, Mean (0 nM = 100)” value ([4]; compound 100000 nM) was -1.144 and the IC50 ([4]; read-out: IC50 SARS-CoV-2 Beta, Caco-2 cells, in-cell ELISA 2 days post infection) was 24000 nM. For the same compound, the “normalized fluorescence intensity, HEK293T TMPRSS2, Mean (Fig. 4b)” value (shortened to “normalized fluorescence intensity”) ([5]; 0.5 nM) was 64.65, the “normalized fluorescence intensity” value ([5]; 5 nM) was 70.345 and the “normalized fluorescence intensity” value ([5]; 50 nM) was 54.405. The “normalized fluorescence intensity” value ([5]; 500 nM) was 27.55, the “normalized fluorescence intensity” value ([5]; 5000 nM) was 3.035 and the “normalized fluorescence intensity” value ([5]; 50000 nM) was -6.25. The IC50 ([5]; read-out: IC50 HEK293T TMPRSS2, corrected for mock-transfected HEK293T cells) was 27.9 nM, the “SARS-CoV-2 spike driven entry, Mean (0 nM = 100)” value (shortened to “SARS-CoV-2 spike driven entry”) ([6]; compound 3.2 nM) was 80.182 and the “SARS-CoV-2 spike driven entry” value ([6]; compound 16 nM) was 79.3105. The “SARS-CoV-2 spike driven entry” value ([6]; compound 80 nM) was 77.8645, the “SARS-CoV-2 spike driven entry” value ([6]; compound 400 nM) was 68.1425 and the “SARS-CoV-2 spike driven entry” value ([6]; compound 2000 nM) was 45.4625. For the same compound, the “SARS-CoV-2 spike driven entry” value ([6]; compound 10000 nM) was 19.5785, the “SARS-CoV-2 spike driven entry” value ([6]; compound 50000 nM) was 3.8345 and the IC50 ([6]; read-out: IC50 pseudotyped lentivirus Beta, Caco-2 cells, luciferase 2 days post transduction) was 921 nM. For the same compound, the “cellular protease activity on Caco-2 cells, Mean (Fig. 4a)” value (“cellular protease activity” for short) ([7]; 0.1 nM) was 98.6486, the “cellular protease activity” value ([7]; 1 nM) was 97.8378 and the “cellular protease activity” value ([7]; 10 nM) was 84.0541. For the same compound, the “cellular protease activity” value ([7]; 100 nM) was 62.973, the “cellular protease activity” value ([7]; 1000 nM) was 30.5405 and the “cellular protease activity” value ([7]; 10000 nM) was 10.2703. For the same compound, the “cellular protease activity” value ([7]; 100000 nM) was 2.7027, the IC50 ([7]; read-out: IC50 Caco2, cell-mediated proteolysis of Boc-Gln-Ala-Arg-AMC, 30 min preincubation) was 234 nM and the Selectivity index Matriptase ([8]; quotient Ki matriptase / Ki TMPRSS2) was 0.5. For the same compound, the Ki ([8]; read-out: Ki Matriptase, 30 min preincubation, substrate Boc-Gln-Ala-Arg-AMC) was 30 nM, the “TMPRSS2 activity, Mean (Fig. 2a)” value (TMPRSS2; 0.05 nM) was 93.8202 and the “TMPRSS2 activity, Mean (Fig. 2a)” value (TMPRSS2; 0.5 nM) was 96.1798. The “TMPRSS2 activity, Mean (Fig. 2a)” value (TMPRSS2; 5 nM) was 91.4607, the “TMPRSS2 activity, Mean (Fig. 2a)” value (TMPRSS2; 50 nM) was 64.6067 and the “TMPRSS2 activity, Mean (Fig. 2a)” value (TMPRSS2; 500 nM) was 33.4831. For the same compound, the “TMPRSS2 activity, Mean (Fig. 2a)” value (TMPRSS2; 5000 nM) was 1.685, the “TMPRSS2 activity, Mean (Fig. 2a)” value (TMPRSS2; 50000 nM) was 0.5618 and the “TMPRSS2 activity, Mean (Fig. 2a)” value (TMPRSS2; 500000 nM) was -0.1124. The Ki (TMPRSS2; read-out: Ki TMPRSS2, 30 min preincubation, substrate Boc-Gln-Ala-Arg-AMC, Ki from IC50 by Cheng–Prusoff) was 57.7 nM, the “SARS-CoV-2 spike driven entry” value ([9]; compound 3.2 nM) was 88.3815 and the “SARS-CoV-2 spike driven entry” value ([9]; compound 16 nM) was 81.246. For the same compound, the “SARS-CoV-2 spike driven entry” value ([9]; compound 80 nM) was 81.0905, the “SARS-CoV-2 spike driven entry” value ([9]; compound 400 nM) was 76.6315 and the “SARS-CoV-2 spike driven entry” value ([9]; compound 2000 nM) was 52.42. For the same compound, the “SARS-CoV-2 spike driven entry” value ([9]; compound 10000 nM) was 21.5405, the “SARS-CoV-2 spike driven entry” value ([9]; compound 50000 nM) was 4.0885 and the IC50 ([9]; read-out: IC50 pseudotyped lentivirus Alpha, Caco-2 cells, luciferase 2 days post transduction) was 1600 nM.
